Assay results reported in PubChem BioAssay AID1721 (National Center for Advancing Translational Sciences (NCATS), 2009).
Only a part is listed here, and it is no random draw. The source made the active and inactive calls. The call rests on the fitted dose curve; in most records, active means well fitted inhibition curve with a large enough effect; inconclusive means small, poorly fitted or top-dose-only effect, or another doubt; inactive means no such curve, though single readings can be large or run the other way.

Sequences of proteins named here, by UniProt entry; tags and fusion partners are left off. A change or cut given only in a name is not applied to a line headed by its entry.
UniProt Q27686: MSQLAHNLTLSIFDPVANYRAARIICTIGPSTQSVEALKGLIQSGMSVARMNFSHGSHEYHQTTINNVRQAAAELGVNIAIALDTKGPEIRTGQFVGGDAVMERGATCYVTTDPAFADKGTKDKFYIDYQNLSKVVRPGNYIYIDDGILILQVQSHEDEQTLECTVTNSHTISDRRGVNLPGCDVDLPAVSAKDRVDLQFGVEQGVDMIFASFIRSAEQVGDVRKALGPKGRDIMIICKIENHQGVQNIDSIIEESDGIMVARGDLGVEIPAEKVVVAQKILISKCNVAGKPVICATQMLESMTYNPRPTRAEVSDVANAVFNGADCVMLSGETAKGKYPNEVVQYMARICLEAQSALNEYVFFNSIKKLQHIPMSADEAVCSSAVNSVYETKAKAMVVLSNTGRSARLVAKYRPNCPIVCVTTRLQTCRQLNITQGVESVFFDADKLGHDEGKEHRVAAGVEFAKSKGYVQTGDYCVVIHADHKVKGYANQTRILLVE

target: Pyruvate kinase (Leishmania mexicana) (UniProt Q27686); experiment: qHTS Assay for Inhibitors of Leishmania Mexicana Pyruvate Kinase (LmPK); settings: purified LmPK, Kinase-Glo ATP luminescence, 1 h; at 57.5 µM (top of the series)
Excerpt: NIH Chemical Genomics Center [NCGC] Malcolm Walkinshaw, Hugh Morgan, Linda Gilmore University of Edinburgh, UK MLPCN Grant: 1 R03 MH085697-01 NCGC Assay Overview: Pyruvate kinase (L. Mexicana) (LmPK) enzyme was supplied as a highly purified (>95% pure) sulphate-free preparation from University of Edinburgh, UK and assayed for its ability to generate ATP from ADP using phosphoenolpyruvate (PEP) as a substrate. ATP generation was detected in a coupled reaction by luciferase-mediated luminescence, an ATP-dependent process. […] The enzyme was assayed at an intermediate level of activity to screen for both inhibitors and activators.
NCGC Assay Protocol Summary: Three uL of enzyme mix (kept on ice) in assay buffer (50 mM Imidazole pH7.2, 50 mM KCl, 7 mM MgCl2, 0.01% Tween 20, 0.05% BSA) containing PEP (0.5 mM final concentration) and LmPK (0.1 nM final concentration) was dispensed into white solid bottom 1,536 well microtiter plates. 23 nL of compound were delivered by a pin tool and 1 uL of ADP mix in assay buffer (r.t; 0.1 mM final ADP concentration) was added. Plates were incubated at room temperature for 1 hour. Two uL of detection mix (Kinase-Glo, Promega; at 4 degree Celsius protected from light) was added and luminescence read by a ViewLux (Perkin Elmer) at 1 second exposure/plate. Data were normalized to the uninhibited and AC100 inhibition (no enzyme). To monitor activation, the first column contained a five-fold concentration of LmPK (0.5 nM).
On the % scale 0 is the no-effect control and ±100 the full control effect.

Compound | activity change, negative = inhibition
O=C(O)COc1ccc([As](=O)(O)O)cc1[N+](=O)[O-] | inactive: -0.98%
O=P(Nc1nccs1)(Oc1ccccc1)Oc1ccccc1 | inactive: -0.861%
O=P(Nc1nccs1)(c1ccccc1)c1nc2ccccc2s1 (stereo not given) | inactive: -21.6%
CCOP1(=S)c2c(C)nn(CCC#N)c2N=C(c2ccccc2F)N1C (stereo not given) | inactive: 0.284%
CN(C(=O)Cc1ccccc1)[C@@H]1CC[C@]2(CCCO2)C[C@H]1N1CCCC1 | inactive: -4.16%
CCOP1(=S)c2c(C)nn(CCC#N)c2N=C(c2ccc(F)cc2)N1C (stereo not given) | inactive: 11.4%
O=[N+]([O-])c1ccc2c(c1)nnn2O | inactive: -0.818%
NC(=O)Nc1ccc([As](=O)(O)O)cc1 | inactive: -0.667%
CN(C)C1(CNC(=O)c2ccc(S(C)(=O)=O)cc2)CCCCC1 | inactive: 5.64%
O=C(/C=C/c1ccccc1)OC1CN2CCC1CC2 (stereo not given) | inactive: 2.13%
CC1CCC(C(C)C)C(OP(=O)(Nc2ccccn2)c2ccccc2)C1 (stereo not given) | inactive: -3.73%
Cc1ccc(C(=O)OC2CN3CCC2CC3)cc1 (stereo not given) | inactive: 3.7%
Cc1nn(-c2ccccc2)c2c1P(=O)(N1CCOCC1)N(C)C(c1ccccc1)=N2 (stereo not given) | inactive: 0.016%
Nc1cccc([As](=O)(O)c2ccccc2)c1 | inactive: -0.192%
O=[As](O)(c1cccs1)c1cccs1 | inactive: 4.71%
Cc1ccc(OCC(=O)OC2CN3CCC2CC3)cc1 (stereo not given) | inactive: 0.36%
O=P1(Nc2ccc(Br)cn2)COc2ccccc2OC1 | inactive: 1.87%
O=P1(Nc2ncccn2)COc2ccccc2OC1 | inactive: -3.27%
CC(C)(C)C(=O)NC(Sc1ncccn1)C(Cl)(Cl)Cl (stereo not given) | inactive: 0.545%
Clc1n[nH]nc1-c1nn[nH][15n]1 | inactive: -3.33%
CCOP(=O)(NC(=NC(C)c1ccccc1)NC(C)c1ccccc1)OCC (stereo not given) | inactive: -6.29%
O=P1(Nc2ccccn2)COc2ccccc2OC1 | inactive: -4.58%
CCC1=CC2Cc3nc4ccc(Cl)cc4c(N)c3C(C1)C2 (stereo not given) | inactive: 3.02%
CCOP(=O)(Nc1ccc(C)cn1)OCC | inactive: -2.23%
CC(C)/C=N\N=C(\N)N[N+](=O)[O-] | inactive: -2.14%
CN(C(=O)Cc1ccc(Cl)c(Cl)c1)[C@@H]1CCCC[C@H]1N1CCCC1 | inactive: -1.41%
O=[As](O)(c1ccccc1Br)c1ccccc1Br | inactive: 3.09%
O=C(Nc1ccncc1[N+](=O)[O-])c1ccc([N+](=O)[O-])cc1[N+](=O)[O-] | inactive: 0.3%

Compound | activity change, negative = inhibition
O=C(COc1ccccc1)OC1CN2CCC1CC2 (stereo not given) | inactive: -3.27%
COP1(=S)c2c(C)nn(CCC#N)c2N=C(c2ccc(F)cc2)N1C (stereo not given) | inactive: 4.87%
CCC(C)N(CC(C)C)C(=S)SC(NC(C)=O)C(Cl)(Cl)Cl (stereo not given) | inactive: 3.63%
O=C(OC1CN2CCC1CC2)c1cccc([N+](=O)[O-])c1 (stereo not given) | inactive: -3.92%
CCOC(=O)c1ccc(NC(=O)C(C)(CCl)SC)cc1 (stereo not given) | inactive: -0.203%
Cc1cc(SC(NC(=O)c2ccccc2)C(Cl)(Cl)Cl)nc(C(C)C)n1 (stereo not given) | inactive: 0.489%
CCCCOc1ccc(C(=O)NCC2(N3CCCCC3)CCCCC2)cc1OC | inactive: -3.38%
CCOC(=O)Nc1ccc([As](=O)(O)O)c(O)c1 | inactive: -5.04%
O=P(Nc1ccccn1)(c1cccc2ccccc12)c1cccc2ccccc12 | inactive: 1.16%
Cc1cc(SC(NC=O)C(Cl)(Cl)Cl)ncn1 (stereo not given) | inactive: 1.59%
O=[N+]([O-])c1ccc(Nc2ccc(Oc3ccc([N+](=O)[O-])cc3[N+](=O)[O-])cc2)c([N+](=O)[O-])c1 | inactive: -1.43%
CCOC(=O)Nc1cccc([As](=O)(O)O)c1 | inactive: -2.43%
Cc1ccc(OP(=O)(Nc2ccc([N+](=O)[O-])cn2)Oc2ccc(C)cc2)cc1 | inactive: 1.5%
Cc1ccc2nc3c(c(C)c2c1)CC(C(Cl)Cl)S3 (stereo not given) | inactive: -3.42%
O=[As](O)(c1ccc(O)cc1)c1ccccc1O | inactive: 1.81%
C[As](=O)(O)c1cccc(C(=O)O)c1 | inactive: -0.565%
O=[N+]([O-])c1cc([N+](=O)[O-])c(-c2ccn[nH]2)s1 | inactive: 3.97%
CC(C)NC(=O)NP(=O)(Oc1ccccc1)Oc1ccccc1 | inactive: -0.869%
CCN(CC)C(=S)SC(NC=O)C(Cl)(Cl)Cl (stereo not given) | inactive: -4.63%
ClCCSc1nnc(-c2cccnc2)o1 | inactive: 5.46%
CC(C)c1ccc(OP(=O)(Nc2ccccn2)Oc2ccccc2F)cc1 (stereo not given) | inactive: -0.791%
COc1cc(I)ccc1[As](=O)(O)O | inactive: -3.9%
COc1ccc2nc(NP(=O)(c3ccccc3)c3ccccc3)sc2c1 | inactive: 2.4%
Cc1c2c(nc3ccccc13)SC(C(Cl)Cl)C2 (stereo not given) | inactive: -0.424%
Cc1cc(=O)[nH]c(N[N+](=O)[O-])n1 | inactive: -3.1%
O=C(OC1CN2CCC1CC2)C12CC3CC(CC(C3)C1)C2 (stereo not given) | inactive: 4.43%
COc1ccc(N/C(=N/P(=O)(N2CCOCC2)N2CCOCC2)N2CCOCC2)cc1 | inactive: 3.91%
